Reference: publication PMC2757719
For some assays here: Construct, isoform or probe ends are uncertain for at least one entry. For some assays here: At least one verdict rests on a figure or table, not on a statement of the authors.

Columns and labels:
[1] = molecular target: EBNA1 452-641 (Epstein-Barr virus) (UniProt P03211); experiment: EMSA; conditions: no USP7; 20 mM Tris pH 7.5, 200 mM NaCl, 1 ug salmon sperm DNA, 10 fmol probe, 20 ul, room temperature 10 min; 10% polyacrylamide gel; recombinant protein; residues 452-641; label: 32P 5' end label
[2] = system: EBNA1 395-641 + USP7-NTD (TRAF domain); experiment: EMSA; conditions: excess USP7-NTD (10 pmol), slower migration; 20 mM Tris pH 7.5, 200 mM NaCl, 1 ug salmon sperm DNA, 10 fmol probe, 20 ul, room temperature 10 min; 10% polyacrylamide gel; recombinant protein; protein details: N-terminal His6; label: 32P 5' end label

## CGGGAAGCATATGCTACCCG (double strand) [DS site 1 20-mer]
[1]
  binding result: binds
[2]
  binding result: binds
